For at least one entry, the source does not settle the construct or the ends of the probe. Where cells or extracts were used, other partners may take part.
System: ParB (pESBL, Hp7)
Test: EMSA
Settings: salmon sperm DNA 100 ug/mL, 50 mM Tris-HCl pH 7.5, 100 mM NaCl, 250 uM DTT, 15% glycerol, 1 mM EDTA, 100 ug/mL salmon sperm DNA, 4 pmol probe in 10 uL, 15 min at 24 C, 5% PAGE in TGE at 4 C, protein in a lysate after overexpression, label: 5'-Cy3 on strand 1

Row | Sequence | binding result (seven discrete complexes) | binding result (eight discrete complexes)
1 | CCATAATATTGTTATCTTGTTATCTTGTTATCTTGTTATCTTGTTATCTTGTTGTCTTGTTATCTTAATTAA (double strand) [7-DR] | binds | 
2 | TTGAGATAACAAGATAACAAGATAACAAGATAACACCTTGTTATCTTGTTATCTTGTTATCTTGTCATCGAC (double strand) [8-BS] |  | binds
